This is a selection; strong and weak results do not stand in their true shares.
Legend:
Format in all cases: functional
[1] = target: Solute carrier family 2, facilitated glucose transporter member 1 (Homo sapiens) (UniProt P11166); assay: ST_JUDE_LEISH: Cytotoxicity at 2uM final concentration against transgenic Leishmania Mexicana promastigotes LmGLUT1 that are glucose transport deficient and complemented with the human glucose transporter GLUT1. Activity is measured by DNA content using SYBR green in vitro
[2] = target: Hexose transporter 1 (Plasmodium falciparum) (UniProt O97467); assay: ST_JUDE_LEISH: Cytotoxicity at 2uM final concentration against transgenic Leishmania Mexicana promastigotes LmPfHT that are glucose transport deficient and complemented with the Plasmodium falciparum hexose transporter. Activity is measured by DNA content using SYBR green in vitro
[3] = target: Glucose transporter (Leishmania mexicana) (UniProt O61059); assay: ST_JUDE_LEISH: Cytotoxicity at 2uM final concentration against transgenic Leishmania Mexicana promastigotes LmGT2 that are glucose transport deficient and complemented with the L. Mexicana glucose transporter 2. Activity is measured by DNA content using SYBR green in vitro

By UniProt entry, the sequences of proteins in these tests, tags left out. Residues count along the entry.
UniProt P11166, whole entry: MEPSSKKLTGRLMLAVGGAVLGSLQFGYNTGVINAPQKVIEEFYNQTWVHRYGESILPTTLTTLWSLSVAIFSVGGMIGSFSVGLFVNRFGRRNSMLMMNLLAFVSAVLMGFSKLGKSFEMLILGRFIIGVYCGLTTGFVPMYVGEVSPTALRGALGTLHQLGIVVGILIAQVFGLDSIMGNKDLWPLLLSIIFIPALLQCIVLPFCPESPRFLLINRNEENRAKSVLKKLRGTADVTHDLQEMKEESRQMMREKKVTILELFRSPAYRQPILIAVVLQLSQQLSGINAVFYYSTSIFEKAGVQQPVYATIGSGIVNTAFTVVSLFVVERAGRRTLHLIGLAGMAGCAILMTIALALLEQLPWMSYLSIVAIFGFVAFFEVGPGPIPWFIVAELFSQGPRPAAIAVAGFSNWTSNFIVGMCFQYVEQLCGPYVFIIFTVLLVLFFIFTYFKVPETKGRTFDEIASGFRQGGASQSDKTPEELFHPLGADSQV
UniProt O97467, 1-504: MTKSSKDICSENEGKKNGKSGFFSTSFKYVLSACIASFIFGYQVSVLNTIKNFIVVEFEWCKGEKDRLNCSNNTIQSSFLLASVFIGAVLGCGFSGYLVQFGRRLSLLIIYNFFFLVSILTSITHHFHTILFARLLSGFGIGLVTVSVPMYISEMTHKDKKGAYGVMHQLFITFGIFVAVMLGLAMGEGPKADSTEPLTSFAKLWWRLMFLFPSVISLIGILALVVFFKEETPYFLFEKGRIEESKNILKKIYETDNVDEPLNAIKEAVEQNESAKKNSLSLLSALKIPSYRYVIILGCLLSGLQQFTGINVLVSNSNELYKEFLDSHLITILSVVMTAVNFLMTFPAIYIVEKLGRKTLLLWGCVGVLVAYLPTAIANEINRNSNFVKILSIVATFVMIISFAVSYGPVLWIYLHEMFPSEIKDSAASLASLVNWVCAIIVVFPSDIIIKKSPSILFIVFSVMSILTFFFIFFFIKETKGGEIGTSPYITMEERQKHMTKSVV
UniProt O61059, 1-567: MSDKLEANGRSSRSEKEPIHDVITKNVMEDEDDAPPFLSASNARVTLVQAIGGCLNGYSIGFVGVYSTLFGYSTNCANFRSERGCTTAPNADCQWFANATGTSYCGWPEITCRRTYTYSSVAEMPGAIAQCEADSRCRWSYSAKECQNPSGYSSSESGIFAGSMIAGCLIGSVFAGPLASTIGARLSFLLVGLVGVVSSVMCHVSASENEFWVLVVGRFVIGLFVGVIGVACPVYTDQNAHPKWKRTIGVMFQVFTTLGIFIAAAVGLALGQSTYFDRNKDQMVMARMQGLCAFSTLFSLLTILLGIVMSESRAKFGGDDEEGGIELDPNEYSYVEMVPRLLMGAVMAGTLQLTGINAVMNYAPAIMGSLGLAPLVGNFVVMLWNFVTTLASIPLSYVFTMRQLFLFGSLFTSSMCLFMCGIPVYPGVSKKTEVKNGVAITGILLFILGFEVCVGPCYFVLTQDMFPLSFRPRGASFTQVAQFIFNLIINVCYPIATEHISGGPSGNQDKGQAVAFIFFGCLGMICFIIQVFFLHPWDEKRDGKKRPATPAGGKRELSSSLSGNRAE

SMILES	inhibition [1] [%]	inhibition [2] [%]	inhibition [3] [%]
CC(C)(C)c1cc2cc(N(C(=O)c3ccc(C(F)(F)F)cc3)C3CCN(Cc4ccccc4)CC3)ccc2[nH]1	1.61	0.39	-0.65
Cn1c(=O)n(C2CCN(CCCC(c3ccc(F)cc3)c3ccc(F)cc3)CC2)c2ccccc21	13.5	15.1	12.8

Source: ChEMBL document CHEMBL3433997, “St. Jude Leishmania screening dataset” (2016)
